{"source": "PubChem BioAssay AID504761 (Drosophila RNAi Screening Center, 2011)", "purpose": "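Genome-wide fly cell screen for genes dengue virus requires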 (primary screen)", "cell system": "D.Mel-2 cells from Drosophila", "reagents": "long dsRNA against Drosophila genes", "challenge": "infection with dengue virus type 2; dose and infection time not stated", "measured": "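Cells stained for dengue envelope protein and imaged; percent of infected cells per well on duplicate plates, ranked by infection, with stained nuclei counted for cell number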", "reading the numbers": "infection score: higher = more virus-infected cells; cell count: higher = more cells in the well", "call rule": "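Very low infection ranking in both replicate wells (chance probability at most 0.065), then a retest showing infection dropped 1.5-fold or more at p below 0.05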", "calls": "active = confirmed: knock-down lowers infection; inactive = not picked or not confirmed", "note": "In all, the deposit lists about 22,000 reagents; this is an unselected part of those with a known target gene and a result. Of all reagents, 116 (0.52%) were called active. 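Calls depend on retest data that are not deposited; infection was ranked per plate without normalising between plates; the unit of the infection score is not given.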 The raw values are shown without normalisation. Not all columns of the deposit are shown. Reagent sequences are not shown. Not stated in the record: the amount of reagent, the time to read-out."}
{"gene":"CG2321","amplicon":"DRSC15439","infection score, replicate 1":6.37,"cell count, replicate 1":6282,"Outcome":"inactive"}
{"gene":"nonA-l (nonA-like)","amplicon":"DRSC17017","infection score, replicate 1":1.11,"cell count, replicate 1":6122,"Outcome":"inactive"}
{"gene":"nonA-l (nonA-like)","amplicon":"DRSC25387","infection score, replicate 1":0.69,"cell count, replicate 1":6256,"Outcome":"inactive"}
{"gene":"CG11694","amplicon":"DRSC14354","infection score, replicate 1":7.36,"cell count, replicate 1":7106,"Outcome":"inactive"}
{"gene":"CG11694","amplicon":"DRSC24061","infection score, replicate 1":1.05,"cell count, replicate 1":7027,"Outcome":"active"}

Reprinted from above, 2 entries:
{"gene":"nonA-l (nonA-like)","amplicon":"DRSC25387","infection score, replicate 1":0.69,"cell count, replicate 1":6256,"Outcome":"inactive"}
{"gene":"CG11694","amplicon":"DRSC14354","infection score, replicate 1":7.36,"cell count, replicate 1":7106,"Outcome":"inactive"}

Further records:
{"gene":"Bap111 (Brahma associated protein 111kD)","amplicon":"DRSC18419","infection score, replicate 1":2.76,"cell count, replicate 1":6489,"Outcome":"inactive"}
{"gene":"Bap111 (Brahma associated protein 111kD)","amplicon":"DRSC28822","infection score, replicate 1":7.01,"cell count, replicate 1":984,"Outcome":"inactive"}
{"gene":"CG30197","amplicon":"DRSC22394","infection score, replicate 1":3.9,"cell count, replicate 1":6204,"Outcome":"inactive"}
{"gene":"Fum2 (Fumarase 2)","amplicon":"DRSC18345","infection score, replicate 1":5.25,"cell count, replicate 1":6174,"Outcome":"inactive"}
{"gene":"Fum2 (Fumarase 2)","amplicon":"DRSC25313","infection score, replicate 1":4.05,"cell count, replicate 1":6782,"Outcome":"inactive"}
{"gene":"Dpit47 (DNA polymerase interacting tpr containing protein of 47kD)","amplicon":"DRSC04985","infection score, replicate 1":2.41,"cell count, replicate 1":6597,"Outcome":"inactive"}
{"gene":"Dpit47 (DNA polymerase interacting tpr containing protein of 47kD)","amplicon":"DRSC28888","infection score, replicate 1":14.7,"cell count, replicate 1":1476,"Outcome":"inactive"}
